Among the data in ChEMBL document CHEMBL1133067, “Second generation mimics of ganglioside GM1 as artificial receptors for cholera toxin: replacement of the sialic acid moiety” (Bioorg Med Chem Lett, 2000) are Kd values, retold here.

The test is described as follows: Affinity towards Cholera toxin B5 pentamer. On the set-up: species or system Vibrio cholerae.

pKd: −log10 of the molar value.

In turn, LACTOSE, ANHYDROUS showed a pKd of 4.09.

In general, pKd refers to the Kd on a negative log10 scale, so that one unit is a factor of ten. A high value points to a low Kd.
